Source: US11034742B2, “Peptides with antibiotic potential against Mycobacterium tuberculosis” (LINNANE PHARMA AB, priority 2017, dated 2021)
“Also recorded” adds a separate entry of the source. Positions of bridges follow the written chain, without caps; N, C: chain ends. Residues, ends and D or L forms follow the SMILES beside them.

System: M. tuberculosis H37Rv
Experiment: Murine TB model, TEM of lung sections with gold-labelled peptide
Assay type: in vivo, BALB/c mice
Conditions: three days

With CC[C@H](C)[C@@H]1NC(=O)[C@H](CO)NC(=O)[C@H](CCCCN)NC(=O)[C@@H]2CSSC[C@@H](C(=O)N[C@@H](Cc3ccc(O)cc3)C(=O)O)NC(=O)[C@H](CCCCN)NC(=O)[C@@H]3CSSC[C@H](NC(=O)[C@H](CCC(N)=O)NC(=O)[C@H]([C@@H](C)CC)NC(=O)[C@H](CC(=O)O)NC(=O)[C@H](CC(=O)O)NC(=O)[C@H](CCC(=O)O)NC(=O)[C@H](CO)NC(=O)[C@H](Cc4c[nH]c5ccccc45)NC(=O)[C@@H]4CCCN4C(=O)CNC(=O)[C@H](CC(N)=O)NC(=O)[C@@H](NC(=O)CNC(=O)[C@H](Cc4ccccc4)NC(=O)CN)CSSC[C@H](NC(=O)[C@H](Cc4ccc(O)cc4)NC(=O)CNC(=O)CNC(=O)[C@H](CCCCN)NC(=O)[C@H](Cc4ccc(O)cc4)NC(=O)CNC(=O)[C@H](CCCCN)NC1=O)C(=O)N[C@@H](C)C(=O)N[C@@H](CCCNC(=N)N)C(=O)NCC(=O)NCC(=O)N[C@@H](Cc1ccccc1)C(=O)N[C@@H](C(C)C)C(=O)N3)C(=O)N[C@@H](Cc1c[nH]cn1)C(=O)N[C@@H](CC(N)=O)C(=O)N[C@@H](Cc1c[nH]cn1)C(=O)N2 [SEQ ID NO: 3] (H-GFGCNGPWSEDDIQCHNHCKSIKGYKGGYCARGGFVCKCY-OH; disulfide 4-30, 15-37, 19-39 (inferred); N-terminus and C-terminus assumed) the “localisation of gold-labelled peptide in lung sections (TEM)” value was “targets M. tuberculosis within macrophages in lung sections from infected mice; also recorded: peptide (arrows) around M. tuberculosis H37Rv (marked b) in lung macrophages”.
